Among the data in article PMC3751045 are Km, kcat and kcat/Km values, retold here.

Some test systems named below: O=CC=O; O=C[C@@H](O)[C@H](O)CO; CC(=O)C=O; O=C[C@@H](O)CO.
Holding throughout (test): purified protein
Holding throughout (conditions): 160 μM NADPH, pH 6.5 phosphate, 40°C, GST fusion

“Err1 from F. graminearum (FG04223.1) (Fusarium graminearum PH-1)”: the Km with O=CC=O is 535.16 ± 6.42 µM; in the data set on O=C[C@@H](O)[C@H](O)CO, 380.48 ± 18.65 µM; with CC(=O)C=O, 214.32 ± 7.64 µM; with O=C[C@@H](O)CO, 298.72 ± 88.4 µM. In addition, the catalytic constant (kcat) with O=CC=O amounted to 2.9 s⁻¹; in the data set on O=C[C@@H](O)[C@H](O)CO it was 2.91 s⁻¹; in the data set on CC(=O)C=O, 6.76 s⁻¹; in the data set with O=C[C@@H](O)CO, 8.54 s⁻¹. Moreover, the kcat/Km in the data set with O=CC=O was determined as 5420 M⁻¹ s⁻¹; with O=C[C@@H](O)[C@H](O)CO, 7640 M⁻¹ s⁻¹; in the data set on CC(=O)C=O it was 31600 M⁻¹ s⁻¹; in the data set with O=C[C@@H](O)CO, 28600 M⁻¹ s⁻¹.
